Measured values from several laboratories, pooled; numbers as filed in NIAID ChemDB.

All rows: whole-cell or culture tests; organism: HIV-1

Blank or dashed fields: not listed here. Two numbers with a dash give a range or band. ECn is the concentration giving n% inhibition of infection, replication or growth. Neighbouring rows are from separate reports.

compound,strain,read by,read-out,changes,conditions,cell line,value
CCN1c2ncc(CCOc3ccc(-c4cc(C(=O)O)ccc4C)cc3C)cc2C(=O)N(C)c2cccnc21,,p24,EC50,RT-K103N Y181C,,C8166,0.01–0.05 µM
CC(C)C1=C2[C@H]3CC[C@@H]4[C@@]5(C)CC[C@H](OC(=O)[C@H]6C[C@@H](C(=O)O)C6(C)C)C(C)(C)[C@@H]5CC[C@@]4(C)[C@]3(C)CC[C@@]2(CCNCC2(NC(=O)c3ccc(Cl)cc3)CCCCC2)CC1=O,92HT599,p24 / ELISA,EC50,,,MT-2,<1 µM
CN(C(=O)C(Cc1ccccc1)NC(=O)c1cccc(C(=O)N[C@@H](Cc2ccccc2)C(=O)N(C)c2ccc3scnc3c2)c1)c1ccc2scnc2c1,NL4-3,luciferase,EC50,,,MT-2,0.04 µM
CC(=O)c1c(C)nc(-c2ccccc2)nc1NC(=O)c1ccccc1,CBL-20/H9,GFP / fluorescence,EC50,,,HeLa,>50 µM
CC(C)C1=C2C3CCC4[C@@]5(C)CC[C@H](OC(=O)CC(C)(C)C(=O)O)C(C)(C)C5CC[C@@]4(C)[C@]3(C)CC[C@@]2(NC(=O)Cn2ccnc2)CC1=O,IIIB,RT activity,EC50,,30% human serum,MT-2,<0.199 µM
CC(C)C1=C2[C@H]3CC[C@@H]4[C@@]5(C)CC[C@H](OC(=O)[C@H]6C[C@@H](C(=O)O)C6(C)C)C(C)(C)[C@@H]5CC[C@@]4(C)[C@]3(C)CC[C@@]2(CC(=O)NCC2(N)CCCCC2)CC1=O,92HT599,p24 / ELISA,EC50,,,MT-2,<1 µM
O=C1c2c(O)c(=O)n(-c3ccc(N4CCOCC4)nc3)c(=O)n2CCN1Cc1ccc(F)cc1,,p24,EC95,,,MT-4,<10 µM
[2H]C(CNC[C@H](O)[C@@]12CC[C@]3(C)[C@H](CC[C@@H]4[C@@]5(C)CC[C@H](OC(=O)[C@H]6C[C@@H](C(=O)O)C6(C)C)C(C)(C)[C@@H]5CC[C@]43C)C1=C(C(C)C)C(=O)C2)NC(=O)c1ccc(Cl)cc1,92HT599,p24 / ELISA,EC50,,,MT-2,<1 µM
CC(C)n1c(=O)c(O)c2n(c1=O)CCN(Cc1ccccn1)C2=O,,p24,EC95,,,MT-4,<10 µM
CN(C(=O)[C@H](Cc1cc(F)cc(F)c1)Nc1ccnc(N[C@@H](Cc2cc(F)cc(F)c2)C(=O)N(C)c2ccc3scnc3c2)n1)c1ccc2scnc2c1,NL4-3,luciferase,EC50,,,MT-2,2.86 µM
Cc1cc(C(=O)N[C@@]23CC[C@]4(C)[C@H](CC[C@@H]5[C@@]6(C)CC[C@H](OC(=O)CC(C)(C)C(=O)O)C(C)(C)[C@@H]6CC[C@]54C)C2=C(C(C)C)C(=O)C3)ccn1,IIIB,RT activity,EC50,,30% human serum,MT-2,<0.199 µM
O=C1c2c(O)c(=O)n(Cc3cscn3)c(=O)n2CCN1Cc1ccc(F)cc1,,p24,EC95,,,MT-4,<10 µM
CC(C)C1=C2[C@H]3CC[C@@H]4[C@@]5(C)CC[C@H](OC(=O)[C@H]6C[C@@H](C(=O)O)C6(C)C)C(C)(C)[C@@H]5CC[C@@]4(C)[C@]3(C)CC[C@@]2(CCNCc2ccc(N3CCN(C)CC3)cc2)CC1=O,92HT599,p24 / ELISA,EC50,,,MT-2,<1 µM
CCN1c2ncccc2NC(=O)c2cc(CCOc3ccc(-c4ccc(CC(=O)O)cc4)cc3C)cnc21,,p24,EC50,RT-K103N Y181C,,C8166,0.01–0.05 µM
CN1c2ccccc2C2C1C=C(C#N)C(=O)N2c1ccc([N+](=O)[O-])cc1,12AG,GFP / fluorescence,EC50,,,HeLa,0.3 µM
CCC(=O)c1ccc(F)c([C@@H]2C[C@@H]2NC(=O)Nc2ccc(C#N)cn2)c1O,LAI,β-galactosidase / luminescence,EC50,NNRTI-resistant (RT K101E),,TZM-bl,0.00325 µM
CC(C)C1=C2C3CCC4[C@@]5(C)CC[C@H](OC(=O)CC(C)(C)C(=O)O)C(C)(C)C5CC[C@@]4(C)[C@]3(C)CC[C@@]2(NC(=O)OCC2CC2)CC1=O,IIIB,RT activity,EC50,,30% human serum,MT-2,<0.199 µM
CC(c1ccccn1)n1c(=O)c(O)c2n(c1=O)CCN(Cc1ccc(F)cc1)C2=O,,p24,EC50,,,MT-4,<10 µM
CC(C)C1=C2[C@H]3CC[C@@H]4[C@@]5(C)CC[C@H](OC(=O)CC(C)(C)C(=O)O)C(C)(C)[C@@H]5CC[C@@]4(C)[C@]3(C)CC[C@@]2(NC2CCN(C(=O)OC(C)(C)C)CC2)CC1=O,IIIB,RT activity,EC50,,30% human serum,MT-2,<0.199 µM
COc1ccc(N(C)C(=O)[C@H](Cc2cc(F)cc(F)c2)NS(=O)(=O)CS(=O)(=O)N[C@@H](Cc2cc(F)cc(F)c2)C(=O)N(C)c2ccc(OC)cc2)cc1,NL4-3,luciferase,EC50,,,MT-2,0.48 µM
CCN1c2ncc(CCOc3ccc(NC(=O)c4ccccc4C(=O)O)cc3C)cc2C(=O)N(C)c2cccnc21,IIIB,p24,EC50,,,C8166,<0.01 µM
CC(C)C1=C2[C@H]3CC[C@@H]4[C@@]5(C)CC[C@H](OC(=O)[C@H]6C[C@@H](C(=O)O)C6(C)C)C(C)(C)[C@@H]5CC[C@@]4(C)[C@]3(C)CC[C@@]2(CC(=O)NCc2ccc(N)nc2)CC1=O,92HT599,p24 / ELISA,EC50,,,MT-2,<1 µM
COc1ccc(N(C)C(=O)[C@H](Cc2ccccc2)NC(=O)CCN2CCN(CCC(=O)N[C@@H](Cc3ccccc3)C(=O)N(C)c3ccc(OC)cc3)CC2)cc1,NL4-3,luciferase,EC50,,,MT-2,0.31 µM
Cc1cc(NC(=O)N[C@@]23CC[C@]4(C)[C@H](CC[C@@H]5[C@@]6(C)CC[C@H](OC(=O)CC(C)(C)C(=O)O)C(C)(C)[C@@H]6CC[C@]54C)C2=C(C(C)C)C(=O)C3)ccn1,IIIB,RT activity,EC50,,30% human serum,MT-2,<0.199 µM
COc1ccc(N(C)C(=O)[C@H](Cc2ccccc2)NC(=O)NS(=O)(=O)N[C@@H](Cc2ccccc2)C(=O)N2CCCC2)cc1,NL4-3,luciferase,EC50,,,MT-2,2.04 µM
CC(C)C1=C2C3CCC4[C@@]5(C)CC[C@H](OC(=O)CC(C)(C)C(=O)O)C(C)(C)C5CC[C@@]4(C)[C@]3(C)CC[C@@]2(NC(=O)N(C)C)CC1=O,IIIB,RT activity,EC50,,30% human serum,MT-2,<0.199 µM
COc1ccc(N(C)C(=O)[C@H](Cc2ccccc2)NC(=O)CN2c3ccccc3N(CC(=O)N[C@@H](Cc3ccccc3)C(=O)N(C)c3ccc(OC)cc3)S2(=O)=O)cc1,NL4-3,luciferase,EC50,,,MT-2,0.04 µM
CC(C)C1=C2[C@H]3CC[C@@H]4[C@@]5(C)CC[C@H](OC(=O)[C@H]6C[C@@H](C(=O)O)C6(C)C)C(C)(C)[C@@H]5CC[C@@]4(C)[C@]3(C)CC[C@@]2([C@@H](O)CN(CCN(C)C)Cc2nccs2)CC1=O,92HT599,p24 / ELISA,EC50,,,MT-2,<1 µM
COC[C@@H](c1ccc(C(F)(F)F)cc1)N1CCN(C2(C)CCN(C(=O)c3c(C)ncnc3C)CC2)C[C@@H]1C,R14/S,,EC50,M518V F519L V535M,,TZM-bl,0.0019 µM
CN(C(=O)[C@H](Cc1ccccc1)NC(=O)c1ccc(F)c(C(=O)N[C@@H](Cc2ccccc2)C(=O)N(C)c2ccc3scnc3c2)c1)c1ccc2scnc2c1,NL4-3,luciferase,EC50,,,MT-2,0.06 µM
CC(C)C1=C2C3CCC4[C@@]5(C)CC[C@H](OC(=O)CC(C)(C)C(=O)O)C(C)(C)C5CC[C@@]4(C)[C@]3(C)CC[C@@]2(NC(=O)NC(C)(C)c2ccccc2)CC1=O,IIIB,RT activity,EC50,,30% human serum,MT-2,<0.199 µM
CCN1c2ncc(CCOc3ccc(-c4ccccn4)cc3C)cc2C(=O)N(C)c2cccnc21,IIIB,p24,EC50,,,C8166,<0.01 µM
CN(C(=O)[C@H](Cc1cc(F)cc(F)c1)NC(=O)c1cccc(S(=O)(=O)N[C@@H](Cc2cc(F)cc(F)c2)C(=O)N(C)c2ccc3scnc3c2)c1)c1ccc2scnc2c1,NL4-3,luciferase,EC50,,,MT-2,0.3 µM